This note sets out measurements from PMC4416901, “The Mycobacterium tuberculosis ClpP1P2 Protease Interacts Asymmetrically with Its ATPase Partners ClpX and ClpC1” (PLoS ONE, 2015).

The data set deals with the molecule itself. The experiment in a line: SEC.

B1: Δ15NClpP2 (mClpP2 shortened by another three residues beyond the processing site) (enzyme)
chain: not shown
notes: Mtb ClpP2 lacking the first 15 residues (12 of the propeptide and three more)
B1: the binding result is “binds”.
